Results deposited as PubChem BioAssay AID504761 (Drosophila RNAi Screening Center, 2011)
Test: 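Fly genes whose silencing reduces dengue virus type 2 infection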 (primary screen). Cells: D.Mel-2 cells from Drosophila. Knock-down reagent: long dsRNA against Drosophila genes. Challenge: infection with dengue virus type 2; dose and infection time not stated. Detection: 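Cells stained for dengue envelope protein and imaged; percent of infected cells per well on duplicate plates, ranked by infection, with stained nuclei counted for cell number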. Reading the numbers: infection score: higher = more virus-infected cells; cell count: higher = more cells in the well. Active means: 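Very low infection ranking in both replicate wells (chance probability at most 0.065), then a retest showing infection dropped 1.5-fold or more at p below 0.05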. Calls: active = confirmed: knock-down lowers infection; inactive = not picked or not confirmed.
In all, the deposit lists about 22,000 reagents; shown is a random part of those that have a named target and a result. In the full data, 116 (0.52%) were called active. 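Calls depend on retest data that are not deposited; infection was ranked per plate without normalising between plates; the unit of the infection score is not given.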 Raw values are not corrected between plates. Entries without a mark were called inactive. Reagents against one gene are numbered here. Names joined by + are all predicted targets of the reagent. Not given: the amount of reagent, the time to read-out.

target gene	reagent	infection score, replicate 1	infection score, replicate 2	cell count, replicate 1	cell count, replicate 2
Aprt (GeneID 48224)	1	3.71	5.44	6245	5772
CG2528 (GeneID 35435)	1	4.1	1.95	6558	6610
Nmdar2 (GeneID 31107)	1	13.2	13.4	5938	3129
Nmdar2 (GeneID 31107)	2	1.78	5.35	841	6913
Nmdar2 (GeneID 31107)	3	5.48	1.38	6199	7272
CG7789 (GeneID 43516)	1	5.61	6.34	6473	6627
CG15269 (GeneID 34887)	1	5.02	7.91	6290	6476
CG15269 (GeneID 34887)	2	4.91	2.47	5986	6286
skd (GeneID 43906)	1	3.19	3.5	5830	6081
RpL6 (GeneID 43723)	1	0.76	2.47	1309	971
RpL6 (GeneID 43723)	2	1.95	1.87	2360	1768
RpL6 (GeneID 43723)	3	1.97	2.32	1472	1555
CG17075 (GeneID 33191)	1	3	20.9	5930	5181
CG17075 (GeneID 33191)	2	1.12	0.92	6416	5653
Pat1 (GeneID 31593)	1	1.4	13.3	6514	6974
Pat1 (GeneID 31593)	2	12.1	26.4	7122	6410
CG5111 (GeneID 43085)	1	7.49	11.5	2525	3855
CG42521 (GeneID 8674012)	1	1.78	3.07	6193	5540
CG11570 (GeneID 39357)	1	1.92	3.34	6402	6804
Polr3A (GeneID 32524)	1	2.53	7.13	4815	4724
r + CG13012	1	0.93	7.08	6485	7016
Dys (GeneID 42327)	1	7.1	3.63	5930	6013
Dys (GeneID 42327)	2	0.97	3.86	6275	6967
Dys (GeneID 42327)	3	4.45	2.52	6771	6639
Dys (GeneID 42327)	4	11	1.4	6534	7192
Dys (GeneID 42327)	5	6.68	2.59	6493	1041
Dys (GeneID 42327)	6	0.58	6.8	6699	5452
Dys (GeneID 42327)	7	7.75	4.2	6660	6480
yrt (GeneID 41656)	1	6.68	14.6	6524	6164
Fer1HCH (GeneID 46415)	1	4.25	12.2	6195	6885
CG3829 (GeneID 38000)	1	15.1	43.9	6117	4090
CG31462 (retired record) (GeneID 326143)	1	4.83	3.2	6874	6568
RhoBTB (GeneID 40249)	1		22.6	439	6150
CG9436 (GeneID 35586)	1	11.1	10.2	6740	6352
CG30375 (GeneID 246575)	1	12.4	9.38	5320	6439
serp (GeneID 40150)	1	5.22	6.72	6323	6368
serp (GeneID 40150)	2	1.44	1.68	6512	6312
CG13069 (GeneID 50271)	1	0.93	0.91	6114	6129
CG17195 (GeneID 43113)	1	1.95	9.23	6312	2752
CG17195 (GeneID 43113)	2	3.21	5.5	6361	6291
CG9308 (GeneID 37507)	1	13.4	15.2	6406	5484
CG9308 (GeneID 37507)	2	9.57		4700	279
Sgf11 (GeneID 40035)	1	6.89	8.09	7182	7153
Trax (GeneID 41871)	1	19.4	11.8	5847	6115
CG10081 (GeneID 37226)	1	1.44	3.38	6859	6029
CG10081 (GeneID 37226)	2	20.5	15.2	6629	6792
Nf-YC (GeneID 31622)	1	2.06	2.22	6420	7382
wb (GeneID 43946)	1	2.88	2.88	4832	4335
wb (GeneID 43946)	2		11.3	472	1101
wb (GeneID 43946)	3	2.15	1.22	5714	6313
CG4607 (GeneID 31653)	1	0.59	1.59	6639	6465
CG11999 (GeneID 40637)	1	5.98	13.3	6971	5570
Sox21b (GeneID 39569)	1	2.49	0.93	6519	6334
Sox21b (GeneID 39569)	2	19.8	13.2	5838	6490
tn (GeneID 37190)	1	3.02	2	5989	5813
tn (GeneID 37190)	2	5.55	7.42	6273	6318
tn (GeneID 37190)	3	11	4.85	6285	6578
Pos (GeneID 43762)	1			306	232

Quoted from above (9 entries):
target gene	reagent	infection score, replicate 1	infection score, replicate 2	cell count, replicate 1	cell count, replicate 2
Nmdar2 (GeneID 31107)	3	5.48	1.38	6199	7272
CG7789 (GeneID 43516)	1	5.61	6.34	6473	6627
CG15269 (GeneID 34887)	1	5.02	7.91	6290	6476
CG15269 (GeneID 34887)	2	4.91	2.47	5986	6286
skd (GeneID 43906)	1	3.19	3.5	5830	6081
RpL6 (GeneID 43723)	1	0.76	2.47	1309	971
RpL6 (GeneID 43723)	2	1.95	1.87	2360	1768
RpL6 (GeneID 43723)	3	1.97	2.32	1472	1555
CG17075 (GeneID 33191)	1	3	20.9	5930	5181
